Record: PubChem BioAssay AID1259414 (Drosophila RNAi Screening Center, 2018)
The deposit covers about 24,000 reagents; shown is a random part of those with a known target gene and a result. In the full data, about 1,210 (5%) are marked active. 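Inactive calls also include excluded dsRNAs with several or no targets, genes unexpressed in JW18, and well A1, regardless of score.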 Unmarked entries are inactive. The numbers tell different reagents against one gene apart. Names joined by + are all predicted targets of the reagent. No sequences are given here.

Assay: 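Host factors increasing or decreasing Wolbachia levels in cultured fly cells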 (primary screen)
System: Drosophila JW18 cells infected with Wolbachia
Reagents: long dsRNA against Drosophila genes, 0.25 µg dsRNA per well of a 384-well plate
Timing: 5 days
Conditions: cells persistently infected with Wolbachia before knock-down; no added drug
Measurement: 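Imaged fluorescence in situ signal for Wolbachia 23S rRNA per DAPI-counted host cell, given as a robust z-score within each plate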
Direction: Wolbachia per cell robust z: higher = more Wolbachia per host cell than the plate typical
Rule for the call: 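Hit when robust z is 1.5 or more, or -1.5 or less, in at least two of three replicates; excludes dsRNAs with several or no targets, genes not expressed in JW18 and well A1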

gene,reagent no.,"Wolbachia per cell robust z, rep 1","Wolbachia per cell robust z, rep 2","Wolbachia per cell robust z, rep 3"
tum,1,-0.381,1.55,1.09
oaf,1,-2.71 (active),-1.79,0.862
CG17999,1,-1.48,0.349,0.355
CG17134,1,1.12,0.216,-0.654
CG6664,1,-1.46,-0.424,-2.52
CG6664,2,2.02,0.751,-0.54
CG6664,3,-0.969,-1.26,-0.798
kipf,1,-0.0756,0.654,0.413
kipf,2,0.641,-0.359,-1.19
kipf,3,-0.135,0.441,0.207
tei,1,0.881,1.46,0.739
tei,2,-0.606,-0.109,-1.42
Mst57Dc,1,-0.00809,-2.39,0.427
CG11889 + CG11891,1,0.709,0.238,-0.843
CG11889 + CG11891,2,0.534,-0.101,0.278
CG11889 + CG11891,3,1.16,0.637,-0.32
Brf,1,0.166,-1.81,1.27
Brf,2,-1.76 (active),-0.711,-1.87
CG13585,1,-2.65 (active),-1.49,-1.51
Rab27,1,-1.22,-3.64,-0.814
l(3)73Ah,1,0.548,0.0475,-1.1
4E-T,1,0.506,-1.08,-0.445
4E-T,2,0.574,-0.88,-0.481
naz,1,-0.351,-0.131,-0.963
naz,2,-5.96,-0.664,-0.375
Cad99C,1,0.773,-0.838,-0.144
Cad99C,2,0.287,1.14,-1.04
CG14270,1,-2.3 (active),0.189,-2.49
spt4 + Mvk + CG33672,1,-0.518,-0.459,-0.0182
ADD1,1,-0.356,0.23,0.281
ADD1,2,-0.537,1.12,-1.11
Sgs1,1,-2.02,-0.181,-0.0607
sick,1,0.918,1.04,0.802
sick,2,0.0759,-0.18,-0.0356
sick,3,0.482,0.599,1.59
sick,4,0.0532,-6.02,-1.42
sick,5,-1.05,-0.0668,0.343
sick,6,-0.533,-2.39,-0.533
Arl6IP1,1,1.26,1.42,1.5
Ufsp2,1,0.133,0.637,-0.158
Phax,1,0.923,1.05,-0.504
CG10764,1,-1.34,-0.675,-1.69
CG42361,1,0.461,0.128,0.642
CG42402,1,0.0575,-0.957,0.277
CG42402,2,0.671,-4.42,-1.68
CG11878,1,0.381,0.502,0.288
CG11878,2,-1.25,0.0342,-1.01

3 entries from above, sorted by “Wolbachia per cell robust z, rep 3”, high to low:
gene,reagent no.,"Wolbachia per cell robust z, rep 1","Wolbachia per cell robust z, rep 2","Wolbachia per cell robust z, rep 3"
sick,1,0.918,1.04,0.802
Sgs1,1,-2.02,-0.181,-0.0607
ADD1,2,-0.537,1.12,-1.11
